# Library screen at single concentrations

The filed quantity is “Percent Effect” (%).
The controls that fix the scale are not given in the record; negative values are as filed.
Many other results are left out here, so strong results are more common than in the screen.
Two or more numbers in one place are separate tests of the same structure; such repeats can differ widely.

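Growth of Mycobacterium tuberculosis over 3 days (7H9 medium with glucose and tyloxapol); the read-out is not stated. Tested at 50 µM. The record gives no direction; compounds that gave an IC50 in retests scored well above the rest, so higher reads as more growth inhibition. Size under these conditions: about 69,000 compounds, about 760 of them at 50% or above in at least one test.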

* CCc1c(C(=O)NC2CCS(=O)(=O)C2)cnn1-c1ccc(C)cc1 (stereo not drawn) | 10.28%
* CCCSCC(=O)N1CCN(c2ccc(C)cc2)CC1C (stereo not drawn) | 28.73% & 12.72%
* COc1ccc(CNc2n[nH]c(C)n2)cc1 | 11.9%
* c1cc2c(cc1CSCc1noc(C3CC3)n1)OCCO2 | 28.78%
* Cc1cc(CCC(=O)NCc2ncc[nH]2)ccc1Br | 6.642%
* CCc1nc(CN(C)C2CCN(CCC(=O)N3CCCCC3)C2)no1 (stereo not drawn) | 95.22%
* O=C(NCC1(c2ccc(F)cc2)CC1)N1CCC2(CCOC2)C1 (stereo not drawn) | -1.736% & 62.04%
* CN(Cc1cccs1)C(=O)c1ccc(=O)n(C)c1 | -6.188%
* CSc1cccc(CN(C)C(=O)CN2CCN(c3ncccn3)CC2)c1 | 11.02%
* COC(=O)C(C)NCc1ccc2[nH]c(C)c(C)c2c1 (stereo not drawn) | 2.423%
* Cc1ccc(-c2noc(CN3CCOC(CN(C)C)C3)n2)cc1F (stereo not drawn) | 2.258%
* C=C(C)CN1CCN(CCC(=O)Nc2ccccc2C(N)=O)CC1 | 12.96%
* FC(F)(F)c1ccc2nc([C@H]3CCN(C4CCCCC4)C3)[nH]c2c1 | 64.45% & 35.57%
* O=C(CC1CCc2ccccc21)NCCSc1ccccn1 (stereo not drawn) | -20.36%
* Cc1ccc(C(=O)CC(SC2CCCCC2)C(=O)O)cc1 (stereo not drawn) | 6.819% & 14.93%
* CC(C)C[C@@H](CO)n1cc(-c2cnc(-c3ccco3)nc2)nn1 | 0.09871%
* O=C(Nc1cccnc1N1CCSCC1)c1cc2c(s1)CCCCC2 | -11.48%
* O=C(CN1CCCC(c2ccn[nH]2)C1)Nc1nc2c(s1)CCC2 (stereo not drawn) | 37.19%
* CCCc1nc2c(c(C)c(C)n2Cc2ccccn2)c(N)c1CC | 16.81% & 23.02%
* Cc1csc(N2CCCN(C(=O)c3csc(C)n3)CC2)n1 | 4.825%
* CCOC(=O)CSc1ccc(-c2nc(CC)no2)cn1 | 68.07%
* O=C(Cn1cccn1)NCC1(c2ccccc2)CC1 | -3.786%
* COc1ccc2c(c1)c(-c1nc(N(C)C)ncc1CN)cn2C | 56.12%
* O=C(NCC1CCOC1)c1csc(-c2ccc(Cl)cc2)n1 (stereo not drawn) | 42.25%
* CCOCc1nnc(NCc2cccc(C)c2)o1 | 8.667%
* Clc1ccc(NCc2nnc(C3CC3)o2)cc1Cl | 47.69%
* CC(=O)NCCCNCc1ccc(Cl)c2cccnc12 | 25.15%
* COCC(=O)N1CCO[C@]2(CCC[C@H]2COC)C1 | -11.48%
* CO[C@@H]1CCN(C(=O)c2cc(C)on2)C[C@@H]1Cc1ccccc1 | 24.91%
* CCCn1c(N2CCCCC2)nc2c(C)nn(C)c2c1=O | -37.89%
* O=C(O)c1cc(S(=O)(=O)Nc2cc(Cl)ccc2F)cc2c1OCCO2 | 10.04%
* Nc1nc(CC(=O)N2CCCC(CCc3cccc(F)c3)C2)cc(=O)[nH]1 (stereo not drawn) | -18.77%
* CCCc1cncnc1N1CCC(NCc2cc3ccccc3[nH]2)CC1 | 63.05% & 71.71%
* CCNC(=O)C(C)NC(=O)Nc1ccccc1Cl (stereo not drawn) | -22.02% & -8.757%
* O=C(O)[C@H]1C[C@H](C(=O)NC2CC2)CN(Cc2ccc(-c3cc[nH]n3)s2)C1 | -8.396% & 5.044%
* CN1CCc2[nH]nc(C(=O)N3CCC4(CCCO4)CC3)c2C1 | 23.02%
* O=C(Cn1cnnn1)NCC1(O)CCCc2ccccc21 (stereo not drawn) | -37.89%
* COc1ccc(CCCC(=O)N2C[C@H](C3CC3)[C@@H](N(C)C)C2)cc1 | -6.742%
* COCc1ccc(C(=O)NCCCNc2ccc(C(F)(F)F)cn2)cc1 | -7.192%
* O=C(CCc1ccco1)Nc1cc(C(F)(F)F)c[nH]c1=O | 14.79%
* O=C(CCn1ccccc1=O)N1CCCC(COc2ccc(F)cc2)C1 (stereo not drawn) | -8.782%
* CCOC(=O)CSc1ccc(-c2nc(C)no2)cn1 | 27.81%
* CN(Cc1cccnc1)CC1CC12CCN(Cc1nccs1)CC2 (stereo not drawn) | 8.006% & 0.5424%
* Cc1cccc(CNC(CN2CCN(C)CC2)c2ccccc2)c1 (stereo not drawn) | 53.18%
* CC(=O)Nc1nc(-c2ccc(F)cc2)c[nH]1 | -22.98%
* Fc1ccc(C(NCc2nnc(-c3ccco3)o2)C2CCC2)cc1 (stereo not drawn) | 60.87%
* O=C1CCc2cc(-c3csc(CCN4CCOC4=O)n3)ccc2N1 | 12%
* O=C(CCO)N1CCC2(CCc3ccc(-c4ccoc4)cc32)CC1 | 8.569% & 1.626%
* [H][C@@]12CCCCN(C)[C@]1([H])[C@@H](c1ccccc1)CCN2C(=O)c1cccnc1 | -12.88%
* CC(CNC(=O)N1CCN(Cc2ccon2)CC1)Cc1cccs1 (stereo not drawn) | -10.1%
* O=C(O)C(F)(F)F.[H][C@@]12CCN(Cc3ccco3)CC[C@]1([H])[C@H](COCC1CC1)CN(C)C2=O | 0.9186% & -1.107%
* CCn1cnnc1CN(C)Cc1nc(-c2cc(OC)ccc2F)oc1C | 4.339%

For reference, 6 entries once more:

| SMILES | percent effect |
|---|---|
| `CCCn1c(N2CCCCC2)nc2c(C)nn(C)c2c1=O` | -37.89 |
| `CN(Cc1cccnc1)CC1CC12CCN(Cc1nccs1)CC2` (stereo not drawn) | 8.006 & 0.5424 |
| `O=C(CCc1ccco1)Nc1cc(C(F)(F)F)c[nH]c1=O` | 14.79 |
| `O=C(O)c1cc(S(=O)(=O)Nc2cc(Cl)ccc2F)cc2c1OCCO2` | 10.04 |
| `COc1ccc2c(c1)c(-c1nc(N(C)C)ncc1CN)cn2C` | 56.12 |
| `COc1ccc(CNc2n[nH]c(C)n2)cc1` | 11.9 |

Measurements from “University of Dundee, Small-Polar-MMV Screening Library” (2021), ChEMBL document CHEMBL3988442.